The values below come from patent US20230407373A1 (priority 2020, published 2023).

Assay [1] concerns SARS-CoV-2 gRNA and sgRNAs. The format is binding. As to conditions: for target (unweighted spectral count in RNP capture): Probe II capture, LC-MS/MS LFQ; for background (unweighted spectral count in control): no-probe control pull-down, used as background for Probe II.
The subject of assay [2] is SARS-CoV-2 gRNA. The assay is classed as binding. As to conditions: for target (unweighted spectral count of the protein in the RNP capture): LC-MS/MS, Probe I sample (first 199 lines of Table 2).

B1: QKI (protein, UniProt Q96PU8 1-341, looked up)
KH domain-containing …: MVGEMETKEKPKPTPDYLMQLMNDKKLMSSLPNFCGIFNHLERLLDEEISRVRKDMYNDTLNGSTEKRSAELPDAVGPIVQLQEKLYVPVKEYPDFNFVGRILGPRGLTAKQLEAETGCKIMVRGKGSMRDKKKEEQNRGKPNWEHLNEDLHVLITVEDAQNRAEIKLKRAVEEVKKLLVPAAEGEDSLKKMQLMELAILNGTYRDANIKSPALAFSLAATAQAAPRIITGPAPVLPPAALRTPTPAGPTIMPLIRQIQTAVMPNGTPHPTAAIVPPGPEAGLIYTPYEYPYTLAPATSILEYPIEPSGVLGAVATKVRRHDMRVHPYQRIVTADRAATGN
Turning to B1, the “target (unweighted spectral count of the protein in the RNP capture experiment)” value in assay [1] ([…], LC-MS/MS label-free quantification, probe pool not given) was found to be 6. The “back-ground (unweighted spectral count of the protein in the control experiment)” value in assay [1] (protein background of the control (e.g. no-probe) experiment, […]) was determined as 1. For the same molecule, the “target (unweighted spectral count of the protein in the RNP capture)” value in assay [2] amounted to 6.

B2: IGF2BP2 (protein, UniProt Q9Y6M1 1-599, looked up)
Insulin-like growth factor 2 …: MMNKLYIGNLSPAVTADDLRQLFGDRKLPLAGQVLLKSGYAFVDYPDQNWAIRAIETLSGKVELHGKIMEVDYSVSKKLRSRKIQIRNIPPHLQWEVLDGLLAQYGTVENVEQVNTDTETAVVNVTYATREEAKIAMEKLSGHQFENYSFKISYIPDEEVSSPSPPQRAQRGDHSSREQGHAPGGTSQARQIDFPLRILVPTQFVGAIIGKEGLTIKNITKQTQSRVDIHRKENSGAAEKPVTIHATPEGTSEACRMILEIMQKEADETKLAEEIPLKILAHNGLVGRLIGKEGRNLKKIEHETGTKITISSLQDLSIYNPERTITVKGTVEACASAEIEIMKKLREAFENDMLAVNQQANLIPGLNLSALGIFSTGLSVLSPPAGPRGAPPAAPYHPFTTHSGYFSSLYPHHQFGPFPHHHSYPEQEIVNLFIPTQAVGAIIGKKGAHIKQLARFAGASIKIAPAEGPDVSERMVIITGPPEAQFKAQGRIFGKLKEENFFNPKEEVKLEAHIRVPSSTAGRVIGKGGKTVNELQNLTSAEVIVPRDQTPDENEEVIVRIIGHFFASQTAQRKIREIVQQVKQQEQKYPQGVASQRSK
For the molecule B2, the “target (unweighted spectral count in RNP capture)” value in assay [1] ([…]) amounted to 81. For the same molecule, in assay [1], the “background (unweighted spectral count in control)” value (shortened to “background”) was 1. In addition, the “target (unweighted spectral count of the protein in the RNP capture)” value in assay [2] is 32.

B3: IGF2BP3: host protein, UniProt O00425 (protein, UniProt O00425 1-579, looked up)
Insulin-like growth factor 2 …: MNKLYIGNLSENAAPSDLESIFKDAKIPVSGPFLVKTGYAFVDCPDESWALKAIEALSGKIELHGKPIEVEHSVPKRQRIRKLQIRNIPPHLQWEVLDSLLVQYGVVESCEQVNTDSETAVVNVTYSSKDQARQALDKLNGFQLENFTLKVAYIPDEMAAQQNPLQQPRGRRGLGQRGSSRQGSPGSVSKQKPCDLPLRLLVPTQFVGAIIGKEGATIRNITKQTQSKIDVHRKENAGAAEKSITILSTPEGTSAACKSILEIMHKEAQDIKFTEEIPLKILAHNNFVGRLIGKEGRNLKKIEQDTDTKITISPLQELTLYNPERTITVKGNVETCAKAEEEIMKKIRESYENDIASMNLQAHLIPGLNLNALGLFPPTSGMPPPTSGPPSAMTPPYPQFEQSETETVHLFIPALSVGAIIGKQGQHIKQLSRFAGASIKIAPAEAPDAKVRMVIITGPPEAQFKAQGRIYGKIKEENFVSPKEEVKLEAHIRVPSFAAGRVIGKGGKTVNELQNLSSAEVVVPRDQTPDENDQVVVKITGHFYACQVAQRKIQEILTQVKQHQQQKALQSGPPQSRRK
In the case of B3, in assay [1], the “enrichment in SARS-CoV-2 Probe II RNP capture” value is recorded as “found in the SARS-CoV-2 experiments” and the “background” value was found to be 1. Further, the “enrichment in SARS-CoV-2 Probe I RNP capture” value in assay [2] is listed as “found in the SARS-CoV-2 experiments”.

B4: IGF28P3 (protein, UniProt O00425 1-579, looked up)
Insulin-like growth factor 2 …: B3 Insulin-like growth factor 2 …
With B4, in assay [2], the “target (unweighted spectral count of the protein in the RNP capture)” value is given as 8.

B5: PUM2 (protein, UniProt Q8TB72 1-1066, looked up)
Pumilio homolog 2: MNHDFQALALESRGMGELLPTKKFWEPDDSTKDGQKGIFLGDDEWRETAWGASHHSMSQPIMVQRRSGQGFHGNSEVNAILSPRSESGGLGVSMVEYVLSSSPADKLDSRFRKGNFGTRDAETDGPEKGDQKGKASPFEEDQNRDLKQGDDDDSKINGRGLPNGMDADCKDFNRTPGSRQASPTEVVERLGPNTNPSEGLGPLPNPTANKPLVEEFSNPETQNLDAMEQVGLESLQFDYPGNQVPMDSSGATVGLFDYNSQQQLFQRTNALTVQQLTAAQQQQYALAAAQQPHIAGVFSAGLAPAAFVPNPYIISAAPPGTDPYTAAGLAAAATLAGPAVVPPQYYGVPWGVYPANLFQQQAAAAANNTASQQAASQAQPGQQQVLRAGAGQRPLTPNQGQQGQQAESLAAAAAANPTLAFGQGLATGMPGYQVLAPTAYYDQTGALVVGPGARTGLGAPVRLMAPTPVLISSAAAQAAAAAAAGGTASSLTGSTNGLFRPIGTQPPQQQQQQPSTNLQSNSFYGSSSLTNSSQSSSLFSHGPGQPGSTSLGFGSGNSLGAAIGSALSGFGSSVGSSASSSATRRESLSTSSDLYKRSSSSLAPIGQPFYNSLGFSSSPSPIGMPLPSQTPGHSLTPPPSLSSHGSSSSLHLGGLTNGSGRYISAAPGAEAKYRSASSTSSLFSSSSQLFPPSRLRYNRSDIMPSGRSRLLEDFRNNRFPNLQLRDLIGHIVEFSQDQHGSRFIQQKLERATPAERQMVFNEILQAAYQLMTDVFGNYVIQKFFEFGSLDQKLALATRIRGHVLPLALQMYGCRVIQKALESISSDQQVISEMVKELDGHVLKCVKDQNGNHVVQKCIECVQPQSLQFIIDAFKGQVFVLSTHPYGCRVIQRILEHCTAEQTLPILEELHQHTEQLVQDQYGNYVIQHVLEHGRPEDKSKIVSEIRGKVLALSQHKFASNVVEKCVTHASRAERALLIDEVCCQNDGPHSALYTMMKDQYANYVVQKMIDMAEPAQRKIIMHKIRPHITTLRKYTYGKHILAKLEKYYLKNSPDLGPIGGPPNGML
As for B5, the “target (unweighted spectral count in RNP capture)” value in assay [1] ([…]) amounted to 43. For the same molecule, in assay [1], the “background” value was found to be 1.
